Reference: patent publication US20070073039A1, “Peptides that inhibit viral infections” (priority 2005, published 2007)

Tested on: Dengue-2
Assay: Dengue-2 infection of Vero cells, Intracellular FACS Assay
Type: cell-based
Settings: 20 μM; Vero cells 3 days post-infection
Experimental: Intracellular FACS Assay: Vero cells were seeded for 24 h pre-infection in 6-well plates. Cells were exposed to Dengue-2 in the presence of increasing concentrations of peptide (or DMSO as control). Viruses and peptide were washed away 2 h post-infection. Cells were taken for intracellular staining 3 days post-infection. Cells were stained with appropriate isotype control, Dengue Env, Dengue capsid or tubulin antibodies. Cells were analyzed by FACS.

SWLRDIWDWI [^C-10mer]
% GATED, α-Tubulin: 97.30%
